Compound potency records, mixed from different reports. Data source: NIAID ChemDB in PubChem.

Common to all: target-level tests; organism: HIV-1; target: Reverse transcriptase

Inhibition is in % at the dose shown (toxicity tests: loss of growth or viability).

{"SMILES": "CC(C)(C)c1ccc(-n2nnnc2SCC(=O)Nc2ccc(NC(=O)Cn3cnnn3)cc2Cl)c(Cl)c1", "mutations": "RT-K103 Y181C", "method": "PicoGreen / fluorescence", "endpoint": "IC50", "result": "<1 µM"}
{"SMILES": "CCN1c2ncc(CCOc3ccc(CCC(=O)O)c4c3CCCC4)cc2C(=O)N(C)c2cccnc21", "mutations": "RT-K103N Y181C", "method": "nucleotide incorporation / radiometric", "endpoint": "fold resistance", "result": "1–10"}
{"SMILES": "CC(C)(C#Cc1ccc(NC(=O)CSc2nnnn2-c2cc(C3CC3)ccc2Cl)c(Cl)c1)NC(=O)CN", "strain": "WT", "method": "PicoGreen / fluorescence", "endpoint": "IC50", "result": "<1 µM"}
{"SMILES": "Cc1cc(S(N)(=O)=O)ccc1NC(=O)CSc1nnc(Br)n1-c1c(Cl)cc(C2CCC2)c2ccccc12", "mutations": "RT-Y188L", "method": "nucleotide incorporation / radiometric", "endpoint": "fold resistance", "result": ">1"}
{"SMILES": "CC(C)(C)c1ccc(-n2nnnc2SCC(=O)Nc2ccc(C(=O)NCc3cccnc3)cc2Cl)c(Cl)c1", "strain": "WT", "method": "PicoGreen / fluorescence", "endpoint": "IC50", "result": "<1 µM"}
{"SMILES": "Cc1cn([C@H]2CC[C@@H](COP(=O)(O)OP(=O)(O)OP(=O)(O)O)O2)c(=O)[nH]c1=O", "mutations": "RT-A62V V75I F77L F116Y Q151M", "method": "nucleotide incorporation / radiometric", "endpoint": "Ki", "result": "0.61 µM"}
{"SMILES": "CCN1c2ncc(CCOc3ccc(C(=O)Nc4ccc(C(=O)O)cc4)cc3C)cc2C(=O)N(C)c2cccnc21", "strain": "IIIB", "method": "nucleotide incorporation / radiometric", "endpoint": "IC50", "result": "<0.05 µM"}
{"SMILES": "C=Cc1cc(N(CC)CC)nc(S(C)(=O)=O)n1", "mutations": "RT-K103N", "method": "nucleotide incorporation / radiometric", "endpoint": "Ki", "result": ">400 µM"}
{"SMILES": "Nc1ncnc2c1ncn2[C@H]1CC[C@@H](COP(=O)(O)OP(=O)(O)OP(=O)(O)O)O1", "method": "nucleotide incorporation", "endpoint": "Ki", "result": ">100 µM"}
{"SMILES": "Cc1cc(-c2ccc(NC(=O)CSc3nnnn3-c3ccc(C(C)(C)C)cc3Cl)c(Cl)c2)ccc1OCC(=O)O", "strain": "WT", "method": "PicoGreen / fluorescence", "endpoint": "IC50", "result": "<1 µM"}
{"SMILES": "CCN1c2ncc(CCOc3ccc(C(=O)Nc4ccc(CC(=O)O)cc4)cc3C)cc2C(=O)Nc2c(C)ccnc21", "strain": "IIIB", "method": "nucleotide incorporation / radiometric", "endpoint": "IC50", "result": "<0.05 µM"}
{"SMILES": "CC(C)(C#Cc1ccc(NC(=O)CSc2nnnn2-c2ccc(C3CC3)cc2Cl)c(Cl)c1)NC(=O)N1CCNCC1", "strain": "WT", "method": "PicoGreen / fluorescence", "endpoint": "IC50", "result": "<1 µM"}
{"SMILES": "CCN1C(=O)c2ccnnc2Oc2ccc(OC)cc21", "method": "ELISA", "endpoint": "inhibition", "dose": "33 µM", "result": "19%"}
{"SMILES": "CCN1c2ncc(CCOc3ccc(/C=C(\\C)C(=O)O)c4ccccc34)cc2C(=O)N(C)c2ccc(Cl)nc21", "mutations": "RT-Y188L", "method": "nucleotide incorporation / radiometric", "endpoint": "IC50", "result": ">1 µM"}
{"SMILES": "CC(C)(C)c1ccc(-n2nnnc2SCC(=O)Nc2ccc(OCC(=O)NCC3CCC(C(=O)O)CC3)cc2Cl)c(Cl)c1", "strain": "WT", "method": "PicoGreen / fluorescence", "endpoint": "IC50", "result": "<1 µM"}
{"SMILES": "Cc1nnc2c3ccccc3c(N3CCc4ccccc4C3)nn12", "strain": "IIIB", "method": "RT activity / fluorescence", "endpoint": "IC90", "result": "0.31 µM"}
{"SMILES": "CC(C)(C)c1ccc(-n2nnnc2SCC(=O)Nc2ccc(C(=O)Nc3ccc(C(=O)O)cc3)cc2Cl)c(Cl)c1", "mutations": "RT-K103 Y181C", "method": "PicoGreen / fluorescence", "endpoint": "IC50", "result": "<1 µM"}
{"SMILES": "Cc1ccc2c(c1)N(C(C)C)C(=O)c1cc(Cl)nnc1O2", "method": "ELISA", "endpoint": "inhibition", "dose": "330 µM", "result": "72%"}
{"SMILES": "CCOc1ccccc1CCNC(=S)Nc1nccs1", "method": "nucleotide incorporation", "endpoint": "inhibition", "dose": "10 µg/mL", "result": "33%"}
{"SMILES": "Nc1cc2c(c(N3CCOCC3)c1)CCN(c1nn3c(C4CC4)nnc3c3ccccc13)C2", "strain": "IIIB", "method": "RT activity / fluorescence", "endpoint": "IC90", "result": "85.2 µM"}
{"SMILES": "CC(C)(C)c1ccc(-n2nnnc2SCC(=O)Nc2ccc(-c3ccc(/C=C/C(=O)O)s3)cc2Cl)c(Cl)c1", "mutations": "RT-K103 Y181C", "method": "PicoGreen / fluorescence", "endpoint": "IC50", "result": "<1 µM"}
{"SMILES": "Nc1ncnc2c1ncn2[C@H]1CC[C@@H](COP(=O)(O)OP(=O)(O)OP(=O)(O)O)O1", "strain": "IIIB", "mutations": "RT-1(IIIB)", "method": "nucleotide incorporation / radiometric", "endpoint": "Ki", "result": "0.24 µM"}
{"SMILES": "CCN1c2ncc(CCOc3ccc(N(Cc4ccc(C(=O)O)cc4)C(C)=O)cc3C)cc2C(=O)N(C)c2cccnc21", "strain": "IIIB", "mutations": "RT-K103N Y181C", "method": "nucleotide incorporation / radiometric", "endpoint": "IC50", "result": ">0.1 µM"}
{"SMILES": "Cc1nnc2c3c(c(N4CCc5ccccc5C4)nn12)C1CCC3CC1", "strain": "KER2008", "method": "RT activity / fluorescence", "endpoint": "IC90", "result": "9.27 µM"}
{"SMILES": "CC(C)c1ccc(-n2nnnc2SCC(=O)Nc2ccc(-c3ccc(OCCN4CCCC4)cc3)cc2Cl)c(Br)c1", "mutations": "RT-K103 Y181C", "method": "PicoGreen / fluorescence", "endpoint": "IC50", "result": "<1 µM"}
{"SMILES": "Cc1cc(C)c2c(c1)N(CC1CC1)C(=O)c1cc(Cl)nnc1O2", "method": "ELISA", "endpoint": "inhibition", "dose": "330 µM", "result": "31%"}
{"SMILES": "Cc1cc(C)cc(S(=O)(=O)c2c(C(=O)NCCn3cccc3)[nH]c3ccc(Cl)c(F)c23)c1", "mutations": "Y181C", "method": "RT activity / nucleotide incorporation", "endpoint": "Ki", "result": "3.7 µM"}
{"SMILES": "CC(C)(C)c1csc(NC(=O)NCCc2ccccc2)n1", "method": "nucleotide incorporation", "endpoint": "inhibition", "dose": "0.1 µg/mL", "result": "8%"}
{"SMILES": "Cc1ccc(C(F)(F)F)c(Cl)c1-n1nnnc1SCC(=O)Nc1ccc(C#CC(C)(C)O)cc1Cl", "mutations": "RT-K103 Y181C", "method": "PicoGreen / fluorescence", "endpoint": "IC50", "result": "<1 µM"}
{"SMILES": "C=C1c2cc(CCOc3ccc(NS(C)(=O)=O)c4ccccc34)cnc2N(CC)c2ncccc2N1C", "mutations": "RT-V106A", "method": "nucleotide incorporation / radiometric", "endpoint": "IC50", "result": ">1 µM"}
{"SMILES": "COc1cc2c(cc1OC)CN(c1nn3c(C(F)F)nnc3c3ccccc13)CC2", "strain": "IIIB", "method": "RT activity / fluorescence", "endpoint": "IC90", "result": "2.77 µM"}
{"SMILES": "C=Cc1nc(SC)nc(N(C)C)c1Cl", "mutations": "RT-Y181I", "method": "nucleotide incorporation / radiometric", "endpoint": "Ki", "result": ">400 µM"}
{"SMILES": "CCN1c2ncc(CCOc3ccc(Nc4ccccn4)cc3C)cc2C(=O)N(C)c2cccnc21", "strain": "IIIB", "mutations": "RT-K103N Y181C", "method": "nucleotide incorporation / radiometric", "endpoint": "IC50", "result": "<0.05 µM"}
{"SMILES": "CCc1cc(CCc2nc3ccccc3o2)c(=O)[nH]c1C", "mutations": "RT-K103N Y181C", "method": "nucleotide incorporation", "endpoint": "fold resistance", "result": "571"}
{"SMILES": "COc1ccc2c(c1)CCN(c1nn3c(C)nnc3c3ccccc13)C2", "strain": "98US_MSC5016", "method": "RT activity / fluorescence", "endpoint": "IC90", "result": "6.23 µM"}
{"SMILES": "CCN1c2ncc(CCOc3ccc(CCC(=O)O)c4ccccc34)cc2C(=O)Nc2c(C)cc(Cl)nc21", "mutations": "RT-Y188L", "method": "nucleotide incorporation / radiometric", "endpoint": "fold resistance", "result": ">10"}
{"SMILES": "O=P(O)(O)OP(=O)(O)O", "mutations": "RT-Q151E", "method": "nucleotide incorporation / radiometric", "endpoint": "Ki", "result": "653 µM"}
{"SMILES": "C#CC(O)/C=C/C/C=C/C=C/C=C/CC#CC(O)C#CC/C=C/C=C/C=C/CC(O)C#C", "method": "radiometric", "endpoint": "IC95", "result": "4 µM"}
{"SMILES": "CC(C)(C)c1ccc(-n2nnnc2SCC(=O)Nc2ccc(C#CCO)cc2Cl)c(Cl)c1", "strain": "WT", "method": "PicoGreen / fluorescence", "endpoint": "IC50", "result": "<1 µM"}
{"SMILES": "COC(=O)NCCCCNc1nc(Cc2ccccc2)c(C)c(=O)[nH]1", "mutations": "RT-V179D", "endpoint": "Ki", "result": ">1000 µM"}
{"SMILES": "CC(C)(C#Cc1ccc(NC(=O)CSc2nnnn2-c2cc(C(C)(C)C)ccc2Cl)c(Cl)c1)NC(=O)CN1CCNCC1", "mutations": "RT-K103 Y181C", "method": "PicoGreen / fluorescence", "endpoint": "IC50", "result": "<1 µM"}
{"SMILES": "CCN1c2ncc(CCOc3ccc(C(=O)Nc4ccc[n+]([O-])c4)cc3C)cc2C(=O)Nc2c(C)ccnc21", "strain": "IIIB", "method": "nucleotide incorporation / radiometric", "endpoint": "IC50", "result": "<0.05 µM"}
{"SMILES": "CNS(=O)(=O)c1ccc(NC(=O)CSc2nnnn2-c2ccc(C(C)(C)C)cc2Cl)c(Cl)c1", "strain": "WT", "method": "PicoGreen / fluorescence", "endpoint": "IC50", "result": "<1 µM"}
{"SMILES": "CCN1c2ncc(CCOc3ccc(-c4ccc(C(O)C(=O)O)cc4)cc3C)cc2C(=O)N(C)c2cccnc21", "strain": "IIIB", "method": "nucleotide incorporation / radiometric", "endpoint": "IC50", "result": "<0.05 µM"}
{"SMILES": "CC(C)(C#Cc1ccc(NC(=O)CSc2nnnn2-c2ccc(C(C)(C)C)cc2Cl)c(Cl)c1)OCC(=O)Nc1cnccn1", "mutations": "RT-K103 Y181C", "method": "PicoGreen / fluorescence", "endpoint": "IC50", "result": "<1 µM"}
{"SMILES": "Cc1cc(C)cc(S(=O)(=O)c2c(C(N)=O)[nH]c3ccc(Cl)c(F)c23)c1", "mutations": "Y181C", "method": "RT activity / nucleotide incorporation", "endpoint": "Ki", "result": "8.4 µM"}
{"SMILES": "CNC(=O)c1ccc(NC(=O)CSc2nnnn2-c2ccc(C)cc2Cl)c(Cl)c1", "strain": "WT", "method": "PicoGreen / fluorescence", "endpoint": "IC50", "result": "<1 µM"}
{"SMILES": "Nc1nc2c(ncn2[C@H]2CC[C@@H](COP(=O)(O)OP(=O)(O)OP(=O)(O)O)O2)c(=O)[nH]1", "method": "nucleotide incorporation", "endpoint": "Ki", "result": "0.02 µM"}
{"SMILES": "COC(=O)c1cccc(-c2ccc(NC(=O)CSc3nnnn3-c3ccc(C)cc3Cl)c(Cl)c2)c1", "strain": "WT", "method": "PicoGreen / fluorescence", "endpoint": "IC50", "result": "<1 µM"}
{"SMILES": "O=[N+]([O-])c1ccc2c(c1)CN(c1nn3c(C(F)F)nnc3c3ccccc13)CC2", "strain": "KER2008", "method": "RT activity / fluorescence", "endpoint": "IC90", "result": "14.5 µM"}
{"SMILES": "O=C(O)Cc1ccc(-c2ccc(NC(=O)CSc3nnnn3-c3ccc(C4CC4)cc3Cl)c(Br)c2)cc1", "mutations": "RT-K103 Y181C", "method": "PicoGreen / fluorescence", "endpoint": "IC50", "result": "<1 µM"}
{"SMILES": "Cc1nc(NC(=O)NCCc2ccccc2)sc1C", "method": "nucleotide incorporation", "endpoint": "inhibition", "dose": "1 µg/mL", "result": "39%"}
{"SMILES": "CCN1c2ncc(CCOc3ccc(-c4nccn4C)cc3C)cc2C(=O)N(C)c2cccnc21", "strain": "IIIB", "mutations": "RT-K103N Y181C", "method": "nucleotide incorporation / radiometric", "endpoint": "IC50", "result": "0.05–0.1 µM"}
{"SMILES": "CC(C)(C#Cc1ccc(NC(=O)CSc2nnnn2-c2ccc(C3CC3)cc2Cl)c(Cl)c1)NC(=O)C1CC1", "strain": "WT", "method": "PicoGreen / fluorescence", "endpoint": "IC50", "result": "<1 µM"}

ICn: concentration for n% inhibition. Fold resistance: result on the changed form divided by that on wild type. Two numbers with a dash give a range or band. Lines come from different laboratories, so protocols vary.